From the supplement of paper PMC9931576
Human monoclonal antibodies against the spike receptor-binding domain (heavy:light variable regions). IC50 against pseudoviruses bearing the spike of naturally observed variants; lower = stronger; >10 µg/ml means not reached at the top dose. No active / inactive call. The stated detection limit is 0.0005 µg/ml; values near or below 0.001 µg/ml lie at the floor of the assay.

B1: COV2-2693 (protein)
chain 1: QVQLVQSGAEVKKPGASVKVSCQASGYTFTSYDINWVRQATGQGLEWMGWMKSNSGNTGYAQKFQGRVTMTRNTSISTAYMELTSLRSEDTAVYYCARMRSGWPTHGRPDDLWGRGTLVTVSS
chain 2: QSVLTQPPSASGTPGQRVTISCSGSNSNIGSYTVNWYQQLPGTAPKLLIYDNNQRTSGVPDRLSGSKSGTSASLAISGLQSEDEANYYCAVWDDSLNGLVFGGGTKLTVL
B2: BD56-1533 (protein)
chain 1: EVQLVQSGAEVKKPGESLKISCKGLGYTFTRYWIAWVRQMPGRGLEWMGIIYPGDSDSKYSPSFQGQVTFSVDKSISAAYLQWSSLKASDTAIYYCARSGVGEYGDYDYWGQGTLVTVSS
chain 2: EIVLTQSPGTLSLSPGERATLSCRASQSVSSSFFAWYQHKPGQAPRLLIYDASNRATGIPDRFTGSGSGTDFTLTITRLEPEDFAVYYCHQYGSSPPTFGQGTKVEIK
B3: BD56-1545 (protein)
chain 1: QITLKESGPTLVKPTQTLTLTCTFSGFSLSTSGVGVGWIRQPPGEALEWLAIIYWDDDKRYSPSLKSRLTITRDTSKNQVVLTMTKMDPVDTATYYCAHSPTSMITFGGVSAEFHYWGQGTLVTVSS
chain 2: SYEVTQPPSVSVSPGQTASITCSGDKLGDKYVCWYQQKSGQSPVLVMHQDSKRPSGIPERFSGSSSGNTATLTISGTQAMDEADYYCQAWDYSTVVFGRGTRLTVL
B4: BD56-1535 (protein)
chain 1: QVQLVQSGAEVKKPGSSVKVSCKASGGTFSSQAISWVRQAPGQGLEWMGGIIPIFNRTNYAQKFQGRVTITADESTSTAYMQLNSLRSEDTAVYYCATFGTWLDGGRDYWGQGTLVIVSS
chain 2: EIVLTQSPGTLSLSPGKQATLSCRASQSVTSDYLAWYQQKPGQAPRLLIYAASSRASGIPDRFSGSGSGTDFTLTISRLEPEDFAVYYCQQYGRSRTFGQGTKVEIK
B5: BD56-1531 (protein)
chain 1: QVQLQESGPGLVKPSQTLSLTCTVSGGSISSSAFYWSWIRQSPGKGLEWIGFIFYSGSTYYNPSLRSRITISIDISKNQFSLNVNSVTAADTAVYYCARETRRGYSGYDLGGFDHWGQGALVTVSS
chain 2: QSALTQPASVSGSPGQSITISCTGTSSDVGGYNYVSWYQQHPGKAPKLIIDEVRNRPSGVSNRFSGSKSGNTASLTISGLQADDEADYYCSSYTTTSTRVFGGGTKLTVL
B6: BD56-1532 (protein)
chain 1: EVQLVQSGAEVKKPGESLKISCKASGYSFISHWIGWVRQMPGKGLEWMGIIYPGDSDTRYSPSFQGQVTISADKSITTAYLQWTRLKASDTAIYYCARLPTVAGWFHPWGQGTLVTVSS
chain 2: QSVLTQPPSASRTPGQRVTISCSGSSSNIGGNPVNWYQQLPGTAPKLLIQNNYQRPSGVPDRFSGSKSGTSASLAISGLQSEDEADYYCAAWDDSLNVVLFGGGTKLTVL

What follows are binders tested against SARS-CoV-2 Omicron BA.1 spike pseudovirus (assay: pseudovirus neutralization IC50; higher = weaker neutralization).
Experimental: (§1)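 Single-round VSV luciferase pseudovirus mixed with antibody dilutions for 1 h and put on Huh-7 cells for about a day; IC50 from the dose curve.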

Binder | pseudovirus neutralization IC50 [µg/mL]
B1 | > 10
B2 | 0.513
B3 | 3.51
B4 | > 10
B5 | > 10
B6 | 1.02

Each binder was assayed against SARS-CoV-2 Omicron BA.2 spike pseudovirus in the same assay as above.
Experimental: as §1

Binder | pseudovirus neutralization IC50 [µg/mL]
B1 | > 10
B2 | 0.357
B3 | 2.86
B4 | > 10
B5 | > 10
B6 | 1.31

The binders below were run against SARS-CoV-2 Omicron BA.2.75 spike pseudovirus in the same assay as above.
Experimental: as §1

Binder | pseudovirus neutralization IC50 [µg/mL]
B1 | > 10
B2 | 0.663
B3 | 1.98
B4 | > 10
B5 | > 10
B6 | 1.18

Each binder was assayed against SARS-CoV-2 Omicron BA.5 spike pseudovirus in the same assay as above.
Experimental: as §1

Binder | pseudovirus neutralization IC50 [µg/mL]
B1 | > 10
B2 | 0.562
B3 | 1.96
B4 | > 10
B5 | > 10
B6 | 0.984

Each binder was assayed against SARS-CoV-2 Omicron BQ.1.1 spike pseudovirus in the same assay as above.
Experimental: as §1

Binder | pseudovirus neutralization IC50 [µg/mL]
B1 | > 10
B2 | 0.58
B3 | 3.26
B4 | > 10
B5 | > 10
B6 | 1.27

Each binder was assayed against SARS-CoV-2 Omicron XBB spike pseudovirus in the same assay as above.
Experimental: as §1

Binder | pseudovirus neutralization IC50 [µg/mL]
B1 | > 10
B2 | 0.585
B3 | 3.76
B4 | > 10
B5 | > 10
B6 | 2.37

The binders below were run against SARS-CoV-2 early D614G spike pseudovirus in the same assay as above.
Experimental: as §1

Binder | pseudovirus neutralization IC50 [µg/mL]
B1 | 4.28
B2 | > 10
B3 | 2.75
B4 | > 10
B5 | > 10
B6 | 1.23
